PubChem BioAssay AID504761 – Drosophila RNAi Screening Center – 2011
In all, the deposit lists about 22,000 reagents; below is a random part of those that have a named target and a result. In the full data, 116 (0.52%) were called active. 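Calls depend on retest data that are not deposited; infection was ranked per plate without normalising between plates; the unit of the infection score is not given.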 Raw values are not corrected between plates. Unmarked entries are inactive. A plus sign joins genes that one reagent is predicted to hit. The record does not give: the amount of reagent, the time to read-out.

- Purpose: 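Insect host genes that dengue virus relies on to spread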 (primary screen)
- System: D.Mel-2 cells from Drosophila
- Reagents: long dsRNA against Drosophila genes
- Challenge: infection with dengue virus type 2; dose and infection time not stated
- Read-out: 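Per well on two replicate plates, imaging gave the percent of cells positive for viral envelope protein, ranked by infection, and a nuclear count of cells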
- Reading the numbers: infection score: higher = more virus-infected cells; cell count: higher = more cells in the well
- Active means: 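Very low infection ranking in both replicate wells (chance probability at most 0.065), then a retest showing infection dropped 1.5-fold or more at p below 0.05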
- Calls: active = confirmed: knock-down lowers infection; inactive = not picked or not confirmed

Gene	amplicon	infection score, replicate 1	infection score, replicate 2	cell count, replicate 1	cell count, replicate 2
CG32655	DRSC18925	2.79	6.34	6482	6418
CG6790	DRSC16117	7.88	5.75	6221	6747
CG11893	DRSC14429	2.61	4.73	6663	6403
CG11893	DRSC29725	9.49	3.34	6005	6138
hec (hector)	DRSC19895	0.95	2.98	5893	6375
Mlc1 (Myosin alkali light chain 1)	DRSC16740			340	371
Mlc1 (Myosin alkali light chain 1)	DRSC27232	15.8	4.21	5470	6335
CG9997	DRSC16591	1.92	11.5	6566	5501
CG9997	DRSC29613		10.6	366	5712
Sod2 (Superoxide dismutase 2 (Mn))	DRSC07554	7.67	13.5	6314	5805
Sod2 (Superoxide dismutase 2 (Mn))	DRSC27050	5.04	4.43	6507	6685
l(3)72Dp (lethal (3) 72Dp)	DRSC10477	1.38	2.92	5863	6431
CG8765	DRSC23043	1.61	8.22	6141	6135
CG8765	DRSC26371	4.47	2.73	5969	5393
PIG-U (Phosphatidylinositol glycan anchor biosynthesis class U)	DRSC02193	2.21	14.4	6235	4430
PIG-U (Phosphatidylinositol glycan anchor biosynthesis class U)	DRSC28900	11.3	15.2	6134	5957
CG8516	DRSC16437	3.87	7.61	6433	6295
can (cannonball)	DRSC10664	4.5	3.13	6518	6299
Dark (Death-associated APAF1-related killer)	DRSC05922	7.05	1.6	7076	7244
Dark (Death-associated APAF1-related killer)	DRSC27800	4.27	3.76	6699	6698
Eph (Eph receptor tyrosine kinase)	DRSC17164	6.51	8.67	5778	5949
Vha68-3 (Vacuolar H[+] ATPase 68kD subunit 3)	DRSC02809	11.2	17.6	5662	5088
Vha68-3 (Vacuolar H[+] ATPase 68kD subunit 3)	DRSC25742	2.77	1.29	6105	6041
CG10799	DRSC06002	17.8	14.4	5344	6348
Ubc87F (Ubiquitin conjugating enzyme 87F)	DRSC16513	1.25	5.16	6377	6360
Ubc87F (Ubiquitin conjugating enzyme 87F)	DRSC29083	8.82	7.97	5761	6351
CR11700 (retired record)	DRSC17794	0.58	0.51	514	391
CR11700 (retired record)	DRSC23384	2.34	1.72	5564	5587
Zip48C (Zinc/iron regulated transporter-related protein 48C)	DRSC06314	13.2	25.5	4381	3075
Tssk (Testis-specific serine/threonine kinase)	DRSC14784	4.84	9.57	6246	6216
Tssk (Testis-specific serine/threonine kinase)	DRSC26679	11.5	3.14	5803	5887
CG10097 + CG10096	DRSC14189	17.7	15.2	5898	6105
CG10097 + CG10096	DRSC14190	20	23.2	5481	7239
IntS10 (Integrator 10)	DRSC08173	0.9	1.15	6208	6441
CG34235 + CG30058 + CG34312	DRSC22142	3.54	4.64	6554	6901
tomboy20	DRSC14913	6.23	14.2	6130	5874
Tsp42Eb + CG30160	DRSC04961	1.32	3.81	5988	6161
Tsp42Eb + CG30160	DRSC06791	22.9	22.4	5863	4922
CG17470	DRSC02621	15.5	12.5	6688	6623

Laid out differently: entries from further up
Gene | amplicon | infection score, replicate 1 | infection score, replicate 2 | cell count, replicate 1 | cell count, replicate 2
Zip48C (Zinc/iron regulated transporter-related protein 48C) | DRSC06314 | 13.2 | 25.5 | 4381 | 3075
Tssk (Testis-specific serine/threonine kinase) | DRSC14784 | 4.84 | 9.57 | 6246 | 6216
Tssk (Testis-specific serine/threonine kinase) | DRSC26679 | 11.5 | 3.14 | 5803 | 5887
CG10097 + CG10096 | DRSC14189 | 17.7 | 15.2 | 5898 | 6105
CG10097 + CG10096 | DRSC14190 | 20 | 23.2 | 5481 | 7239
IntS10 (Integrator 10) | DRSC08173 | 0.9 | 1.15 | 6208 | 6441

The list goes on.
Gene	amplicon	infection score, replicate 1	infection score, replicate 2	cell count, replicate 1	cell count, replicate 2
CG7101	DRSC20023	6.55	15.1	2979	5777
CG7101	DRSC22845	4.01	13.1	5557	845
CG1582	DRSC19732	1.95	8	6155	6301
Meltrin	DRSC16274	4.11	3.46	6669	6599
Meltrin	DRSC21693	0.5	1.51	6452	7092
Sqor (Sulfide quinone oxidoreductase)	DRSC08453	10.1	2.12	6113	6380
Sqor (Sulfide quinone oxidoreductase)	DRSC27056	5.74	4.42	6339	6563
CG17107	DRSC02575	3.51	5.79	6067	5772
CG17107	DRSC22627	11.9	6.76	6040	6717
CG17107	DRSC25263	0.98	3.05	6209	6355
CG34149	DRSC14537	8.52	1.82	6823	6769
sqh (spaghetti squash)	DRSC18837	2.78	2.87	5894	6068
sqh (spaghetti squash)	DRSC23800	0.8	1.69	6521	6224
CG10725	DRSC09788	6.97	5.74	6671	6616
CG6465	DRSC16046	7.11	9.21	5866	6349
CG6465	DRSC25671	8.27	23.4	3592	4300
Acp29AB (Accessory gland protein 29AB)	DRSC01857	18.6	11.4	5695	2784
Spn31A (Serpin 31A)	DRSC02780	2.34	4.08	7040	6797
Spn31A (Serpin 31A)	DRSC29198	14.6	7.34	2452	477
nullo	DRSC18807	3.04	2.39	6352	6749
nullo	DRSC29660	5.8	2	6221	549
Nepl10 (Neprilysin-like 10)	DRSC07212	20.8	17.2	5709	6685
CG31792	DRSC02604	0.75	10.6	6816	6270
CG17264	DRSC00500	6.84	0.56	6094	6568
CG17264	DRSC29452	9.58	21.3	5920	6101
CG14062	DRSC14725	10.7	3.65	6093	6440
CG14062	DRSC27180	4.31	13.8	6364	6647
CG16964	DRSC02546	3.49	6.33	6337	6418
CG16964	DRSC26799	13.5	5.75	6314	6451
Pebp1 (Phosphatidylethanolamine-binding protein 1)	DRSC15354	10.7	13.2	2423	4951
rn (rotund)	DRSC12543	1.64	2.97	6510	6926
rn (rotund)	DRSC12544	0.26 (active)	0.35	7010	6793
rn (rotund)	DRSC12546	9.25	6.21	5781	6422
rn (rotund)	DRSC22291	2.37	20.9	5699	5458
rn (rotund)	DRSC25073	6.67	5.53	5786	6315
rn (rotund)	DRSC27211	5.62	1.77	5766	6058
